Assay results taken from PubChem BioAssay AID977628 (Broad Institute, 2014).
Results filed as inconclusive are left out. The source made the active and inactive calls.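 The calls were made as follows: active = compound lowering the normal-ribosome reporter at least twice as much as the humanized-ribosome reporter, growth loss under a set limit; inconclusive = no clear call, values can overlap the other calls; inactive = the rest.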

Tested on: E. coli WT GFP strain growth, fluorescence, 24 h
Test: E. coli growth inhibition, wild-type GFP versus h24 humanized RFP strain, dose response, h24 mutant RFP vs wild-type GFP, cherry-pick (AID 977628);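 also: wild-type GFP and h24 humanized RFP strains co-cultured 1 to 1 per well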

O=[N+]([O-])c1cc([N+](=O)[O-])c(Nc2ccccn2)c([N+](=O)[O-])c1
AC50: inactive: > 100 µM
